From ChEMBL document CHEMBL3407432, “Fused heterocycles bearing bridgehead nitrogen as potent HIV-1 NNRTIs. Part 3: optimization of [1,2,4]triazolo[1,5-a]pyrimidine core via structure-based and physicochemical property-driven approaches” (Eur J Med Chem, 2015)
pIC50: −log10 of the molar value.

Biological target: Human immunodeficiency virus type 1 reverse transcriptase (Human immunodeficiency virus 1, UniProt Q72547)
Test: Inhibition of HIV1 reverse transcriptase assessed as reduction in biotin-labeled dUTP incorporation into DNA after 1 hr using poly(A) x oligo(dT)15 template/primer hybrid, digoxigenin and biotin-labeled nucleotides
Procedure, shortened: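 Recombinant HIV-1 RT, colorimetric ELISA kit. Poly(A)·oligo(dT)15 template/primer with biotin- and DIG-labelled dNTPs in lysis buffer ± inhibitor, 1 h at 37 °C. Serial five-fold dilutions tested. IC50 is the concentration halving labelled dUTP incorporation.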

Cc1cc(C#N)cc(C)c1Oc1nc(Nc2ccc(C#N)cc2)nc(N)c1Br [ETRAVIRINE]
pIC50: 7.05
